Measurements from patent US20250011397A1 (HOSPITAL FOR SICK CHILDREN, published 2025).

B1: mAb 298 (antibody, V domains shown)
VH: QVQLVQSGAEVKKPGASVKVSCKASGGTFSTYGISWVRQAPGQGLEWMGWISPNSGGTDLAQKFQGRVTMTRDTSTSTVYMELSSLRSEDTAVYYCASDPRDDIAGGYWGQGTLVTVSS
VL: not shown
notes: also called IgG 298; antibody 298
B2: mAb 80 (antibody, V domains shown)
VH: QVQLVQSGAEVKKPGSSVKVSCKASGGTFNRYAFSWVRQAPGQGLEWMGGIIPIFGTANYAQKFQGRVTITADESTSTAYMELSSLRSEDTAVYYCARSTRELPEVVDWYFDLWGRGTLVTVSS
VL: DIVMTQSPDSLAVSLGERATINCKSSQSVLYSSNNKNYLAWYQQKPGQPPKLLIYWASTRESGVPDRFSGSGSGTDFTLTISSLQAEDVAVYYCQQYYSAPLTFGGGTKVEIKR
notes: also called IgG 80; 80 mAb

Molecular target: T1, SARS-CoV-2 receptor binding domain (RBD), wild type, His-tagged (BEI NR52309) (SARS-CoV-2, UniProt P0DTC2 319-541)
T1 construct: also called WT RBD
Experiment: RBD KD column; method and antibody format not stated

Binder	Kd [nM]
B1	24
B2	142
